One compound from paper doi:10.1101/2024.08.19.608619, “Discovery of potent SARS-CoV-2 nsp3 macrodomain inhibitors uncovers lack of translation to cellular antiviral response” (bioRxiv, 2024) can be followed below.

Molecules are shown by their SMILES.

The test system of one data set is MERS-CoV. Description: Vero E6/TMPRSS2 MERS-CoV antiviral effect with P-gp inhibitor. Type of data set: cell-based.
The next data set relates to Vero E6/TMPRSS2. The data set is described as follows: Vero E6/TMPRSS2 cytotoxicity with P-gp inhibitor. Type of data set: cell-based.

Broadly, the EC90 is the concentration at which the effect reaches the 90% level. `CC(C)[C@H](Nc1ncnc2[nH]ccc12)c1ccc2c(c1)S(=O)(=O)CCC2` [ASAP-0008674] had an EC90 with MERS-CoV of over 20 µM. This compound gave a cc10 in the data set on Vero E6/TMPRSS2 of over 20.0 µM.
